Results reported in publication PMC2759517.

target: HA-tagged PA of FluA (Influenza A virus); assay: ELISA

Substance	IC50 [nM]
PB1 1-14	34.5
PB1 11-25	> 3000
PB1 1-20	33.8
PB1 5-25	483
PB1 9-25	> 3000
PB1 1-9	> 3000
PB1 3-25	662
PB1 1-13	138
PB1 7-25	> 3000
PB1 1-16	45.9
PB1 1-11	900
PB1 1-7	> 3000
PB1 1-6	> 3000
PB1 1-8	> 3000
PB1 1-12	644
PB1 1-10	> 3000
